The subject of this assay is tetanus toxin. Kind of assay: Survival of intranasally immunized mice to Tetanus Toxin challenge. Particulars: four weekly intranasal doses TT 1 μg/dose, AT1002 30 μg/dose; s.c. challenge 2 months later with DP50 tetanus toxin; monitored one week. The class given is in vivo.

Tetanus toxoid: the “No. of survivors/No. of mice” value was 0/7.
